Share of PSTVd loop 15 variants by leaf site

PSTVd intermediate strain, loop 15: wild type GGAAACCGCUACUAC, pool pattern GGAAACCGNNNNNNC; upper and lower strand joined, each 5' to 3', the first 7 letters being the upper strand, closing pairs included.

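A pool of all variants was put on leaves of three Nicotiana benthamiana plants. Samples came from the inoculated region at 5 days, the leaf margin at 10 and upper systemic leaves at 12.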

Values are reads per thousand in the sample; higher means more abundant, 0 means not found.
Each site shows the three plants.
"Pool" is the share in the plasmid pool used as inoculum, on the same scale.
The inoculated region was read from the minus strand, the other sites from the plus strand.
Sequences that differ at fixed positions probably stem from PCR or sequencing errors, and defective variants can be carried along by functional ones.
Samples held 43,870 to 66,106 reads, so the smallest values rest on one or two reads.
Wild type was 33.9 per thousand in the pool and the most common sequence in every sample (inoculated region 202, 200, 159; leaf margin 724, 746, 710; systemic leaves 856, 883, 880).

{"sequence": "GGAAACCGACCUCUC", "pool": "0.272", "inoculated region": "0.0819 0.0643 0.114", "leaf margin": "0 0 0", "systemic leaves": "0 0 0"}
{"sequence": "GGAAACCGACCUGAC", "pool": "0.272", "inoculated region": "0.0655 0.0803 0.0952", "leaf margin": "0 0 0", "systemic leaves": "0 0 0"}
{"sequence": "GGAAACCGACCUGCC", "pool": "0.256", "inoculated region": "0.115 0.0964 0.133", "leaf margin": "0.0162 0 0", "systemic leaves": "0 0 0"}
{"sequence": "GGAAACCGACCUGGC", "pool": "0.176", "inoculated region": "0.131 0.0321 0.0762", "leaf margin": "0 0 0", "systemic leaves": "0 0 0"}
{"sequence": "GGAAACCGACCUGUC", "pool": "0.192", "inoculated region": "0.131 0.0482 0.0952", "leaf margin": "0 0 0", "systemic leaves": "0 0 0"}
{"sequence": "GGAAACCGACCUUAC", "pool": "0.336", "inoculated region": "0.426 0.337 0.628", "leaf margin": "0.0970 0.200 0.200", "systemic leaves": "0.0322 0 0"}
{"sequence": "GGAAACCGACCUUCC", "pool": "0.288", "inoculated region": "0.0491 0.161 0.133", "leaf margin": "0 0 0.0200", "systemic leaves": "0.0161 0 0"}
{"sequence": "GGAAACCGACCUUGC", "pool": "0.160", "inoculated region": "0.0491 0.112 0.0571", "leaf margin": "0 0 0.0401", "systemic leaves": "0 0 0"}
{"sequence": "GGAAACCGACCUUUC", "pool": "0.192", "inoculated region": "0.278 0.353 0.343", "leaf margin": "0 0 0", "systemic leaves": "0 0 0"}
{"sequence": "GGAAACCGACGAAAC", "pool": "0.288", "inoculated region": "0.0819 0.0964 0.0571", "leaf margin": "0.0162 0 0.0401", "systemic leaves": "0 0 0"}
{"sequence": "GGAAACCGACGAACC", "pool": "0.288", "inoculated region": "0.115 0.0482 0.0571", "leaf margin": "0.0162 0 0.0200", "systemic leaves": "0 0 0"}
{"sequence": "GGAAACCGACGAAGC", "pool": "0.144", "inoculated region": "0.0328 0.129 0.0571", "leaf margin": "0.0162 0 0", "systemic leaves": "0 0 0"}
{"sequence": "GGAAACCGACGAAUC", "pool": "0.256", "inoculated region": "0.0819 0.0482 0.133", "leaf margin": "0 0 0.0200", "systemic leaves": "0 0 0"}
{"sequence": "GGAAACCGACGACAC", "pool": "0.288", "inoculated region": "0.0491 0.0803 0.0762", "leaf margin": "0 0 0", "systemic leaves": "0 0 0.0228"}
{"sequence": "GGAAACCGACGACCC", "pool": "0.208", "inoculated region": "0.0328 0.0803 0.133", "leaf margin": "0 0 0", "systemic leaves": "0 0 0"}
{"sequence": "GGAAACCGACGACGC", "pool": "0.240", "inoculated region": "0.147 0.0803 0.0571", "leaf margin": "0.0162 0.0223 0.0200", "systemic leaves": "0 0.0151 0"}
{"sequence": "GGAAACCGACGACUC", "pool": "0.320", "inoculated region": "0.0328 0.0643 0.171", "leaf margin": "0.0162 0 0.0200", "systemic leaves": "0 0 0"}
{"sequence": "GGAAACCGACGAGAC", "pool": "0.240", "inoculated region": "0.115 0.0964 0.0571", "leaf margin": "0 0.0223 0.0801", "systemic leaves": "0 0 0"}
{"sequence": "GGAAACCGACGAGCC", "pool": "0.128", "inoculated region": "0.0655 0.0803 0.114", "leaf margin": "0 0.0223 0.0200", "systemic leaves": "0.0161 0 0"}
{"sequence": "GGAAACCGACGAGGC", "pool": "0.336", "inoculated region": "0.0491 0.145 0.0571", "leaf margin": "0 0 0.0200", "systemic leaves": "0 0 0"}
{"sequence": "GGAAACCGACGAGUC", "pool": "0.368", "inoculated region": "0.0819 0.0803 0.171", "leaf margin": "0.0162 0.0223 0.0401", "systemic leaves": "0 0 0"}
{"sequence": "GGAAACCGACGAUAC", "pool": "0.208", "inoculated region": "0.246 0.161 0.400", "leaf margin": "0.162 0.111 0.140", "systemic leaves": "0.0483 0.0454 0.0912"}
{"sequence": "GGAAACCGACGAUCC", "pool": "0.320", "inoculated region": "0.0655 0.0964 0.114", "leaf margin": "0 0 0.0200", "systemic leaves": "0 0 0"}
{"sequence": "GGAAACCGACGAUGC", "pool": "0.240", "inoculated region": "0.147 0.0643 0.209", "leaf margin": "0.0162 0.0223 0", "systemic leaves": "0 0 0"}

A selection of 3 entries from above:

sequence	pool	inoculated region	leaf margin	systemic leaves
GGAAACCGACCUGUC	0.192	0.131 0.0482 0.0952	0 0 0	0 0 0
GGAAACCGACGAGCC	0.128	0.0655 0.0803 0.114	0 0.0223 0.0200	0.0161 0 0
GGAAACCGACCUUCC	0.288	0.0491 0.161 0.133	0 0 0.0200	0.0161 0 0

The measurements come from Wu et al. 2024 (doi:10.1371/journal.ppat.1012142).